Test results from PubChem BioAssay AID504582 (Broad Institute, 2011).
The entries are a selection whose mix differs from that of the whole data set. Active and inactive are the calls of the source. Rule as the data show it: active = growth rescue above about 28% (passing the limit was not always enough); inconclusive = no clear call, values can overlap the other calls.

Experiment: rescue of yeast from PfHsp40 toxicity, primary screen, S. cerevisiae, ATP luminescence (AID 504582);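 also: yeast W303a lacking pdr1 and pdr3 grown in galactose medium; growth measured after three days at 30 °C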
Settings: S. cerevisiae expressing PfHsp40, growth rescue, at 12.5 µM, active compounds read high
With `O=C(OCCN1CCN(CCOCc2ccccc2)CC1)C(O)(c1ccccc1)c1ccccc1` the growth rescue was inactive: -0.4%. With `O=C(OC1CN2CCC1CC2)c1ccc([N+](=O)[O-])cc1` (stereo not drawn) the growth rescue was inactive: 0.443%. In the case of `CP(=O)(Nc1ccccc1F)Oc1ccccc1` (stereo not drawn), the growth rescue is reported as inactive: 0.229%. In the case of `CC1=CC2OC3CC4OC(=O)C=CC=CC(=O)OCCC(C)C(O)C(=O)OCC2(CC1)C4(C)C31CO1` (stereo not drawn), the growth rescue is reported as inactive: 5.28%. In the case of `Cc1ccccc1NP(C)(=O)Nc1ccccc1C`, the growth rescue is reported as inactive: 0.982%. For `CP(=O)(Nc1ccc2c(c1)OCCO2)Oc1ccccc1` (stereo not drawn), the growth rescue was inactive: -0.078%. In the case of `CCOP(C)(=S)SCC(=O)NC(C)(CC)C(=O)O` (stereo not drawn), the growth rescue is reported as inactive: 0.153%. For `CP(=O)(Nc1ccc(SC(F)(F)F)cc1)Oc1ccc(F)cc1` (stereo not drawn), the growth rescue was inactive: 0.481%. For `Cc1c(C(c2ccc3c(c2)OCO3)c2c(C)n(C)n(-c3ccccc3)c2=O)c(=O)n(-c2ccccc2)n1C.O=[N+]([O-])c1cc([N+](=O)[O-])c(O)c([N+](=O)[O-])c1`, the growth rescue was inactive: -0.708%. With `Cc1cc(-c2cccc3ccccc23)c(C)cn1.O=[N+]([O-])c1cc([N+](=O)[O-])c(O)c([N+](=O)[O-])c1` the growth rescue was inactive: -3.2%. For `O=[N+]([O-])c1cc([N+](=O)[O-])c(NCC2CCS(=O)(=O)C2)c([N+](=O)[O-])c1` (stereo not drawn), the growth rescue was inactive: -0.446%. With `O=[N+]([O-])c1ccc(OP2(=O)COCCO2)cc1` (stereo not drawn) the growth rescue was inactive: 4.58%. In the case of `CC1=CC2OC3CC4OC(=O)C=CC=CC(=O)OCCC(C)C(O)C(=O)OCC2(CC1O)C4(C)C31CO1` (stereo not drawn), the growth rescue is reported as inactive: 2.74%. With `COc1ccc(NP(C)(=O)Oc2ccccc2OC)cc1` (stereo not drawn) the growth rescue was inactive: 0.225%. For `CN(C)CCOC(=O)C(O)(c1ccccc1)C1CCCCC1` (stereo not drawn), the growth rescue was inactive: -1.72%. For `CN(C)C1(CNC(=O)c2ccc(Cl)c(S(N)(=O)=O)c2)CCCCC1`, the growth rescue was inactive: 0.029%. With `COc1ccc(OP(C)(=O)Nc2cccc(Br)c2)cc1` (stereo not drawn) the growth rescue was inactive: 0.459%. For `CP(=O)(OC12CC3CC(CC(C3)C1)C2)OC12CC3CC(CC(C3)C1)C2`, the growth rescue was inactive: 0.341%. For `CCOC(=O)c1ccc(NP(C)(=O)Oc2ccc(Cl)cc2)cc1` (stereo not drawn), the growth rescue was inactive: -0.008%. With `CN(C)C(=O)c1c([N+](=O)[O-])cc([N+](=O)[O-])cc1[N+](=O)[O-]` the growth rescue was inactive: -1.05%. For `CP(=O)(Nc1ccc(Cl)cc1)Oc1ccc(F)cc1` (stereo not drawn), the growth rescue was inactive: -1.48%. In the case of `CC1=CC2OC3CC4OC(=O)/C=C/C=CC(C(C)O)OCC(O)C(C)CC(=O)OCC2(CC1O)C4(C)C31CO1` (stereo not drawn), the growth rescue is reported as inactive: -1.86%. In the case of `CC(C)(C)c1ccc(OP(C)(=O)O)cc1`, the growth rescue is reported as inactive: 2.68%. With `COc1ccccc1OP(C)(=O)Nc1ccccc1Br` (stereo not drawn) the growth rescue was inactive: 0.349%. In the case of `CP(=O)(Oc1ccccc1)N1CCOC1=O` (stereo not drawn), the growth rescue is reported as inactive: 2.07%. For `CCc1ccc(OP(C)(=O)Nc2cccnc2)cc1` (stereo not drawn), the growth rescue was inactive: -0.039%. For `COc1ccccc1OP(C)(=O)Nc1c(C)n(C)n(-c2ccccc2)c1=O` (stereo not drawn), the growth rescue was inactive: 0.009%. With `O=C(OCCCN1CCCC1)C(O)(c1ccccc1)C1CCCCC1` (stereo not drawn) the growth rescue was inactive: -0.0185%. For `CCN(CC)CC(O)COC(=O)C(O)(c1ccccc1)C1CCCCC1` (stereo not drawn), the growth rescue was inactive: 0.601%. For `COc1ccc(OP(C)(=O)Nc2ccc(Br)cc2)cc1` (stereo not drawn), the growth rescue was inactive: 0.128%. In the case of `CC(=O)OC[C@]12CCC(C)=C[C@H]1O[C@@H]1[C@H](O)[C@@H](OC(C)=O)[C@@]2(C)[C@]12CO2`, the growth rescue is reported as inactive: 8.81%. For `CCc1ccc(OP(C)(=O)O)cc1`, the growth rescue was inactive: -0.075%. With `CP(=O)(Nc1ccccn1)Oc1ccccc1` (stereo not drawn) the growth rescue was inactive: -0.657%. For `COc1ccccc1OP(C)(=O)Nc1ccc(C)cc1C` (stereo not drawn), the growth rescue was inactive: -0.94%. For `O=[N+]([O-])c1cc([N+](=O)[O-])c(Nc2ccccn2)c([N+](=O)[O-])c1`, the growth rescue was inactive: 2.53%. With `Cc1c(NP(C)(=O)Oc2ccc(C(C)C)cc2)c(=O)n(-c2ccccc2)n1C` (stereo not drawn) the growth rescue was inactive: -0.703%. In the case of `CN(C)CCOC(=O)C(O)(c1ccccc1)C1CCCC1` (stereo not drawn), the growth rescue is reported as inactive: -1.33%. For `COc1ccccc1OP(C)(=O)Nc1ccc(Br)cc1` (stereo not drawn), the growth rescue was inactive: -0.446%. For `CC1=CC2OC3CC4OC(=O)C=CC=CC(C(C)O)OCC(O)C5(C)OC5C(=O)OCC2(CC1O)C4(C)C31CO1` (stereo not drawn), the growth rescue was inactive: -1.36%. In the case of `CC(=O)OC1C(=O)OCC23CCC4(C)OC4C2OC2CC(OC(=O)C=CC=CC(=O)OCCC1C)C3(C)C21CO1` (stereo not drawn), the growth rescue is reported as active: 536%. In the case of `CP(=O)(OCCOc1ccccc1)OCCOc1ccccc1`, the growth rescue is reported as inactive: -1.31%. For `CP(=O)(Nc1ccc(Cl)cc1Cl)Oc1ccccc1` (stereo not drawn), the growth rescue was inactive: -0.927%. In the case of `CCCCCCCCCCCCCCCC1C[N+](C)(C)CCOP(C)(=O)O1` (stereo not drawn), the growth rescue is reported as active: 197%. In the case of `COc1ccc(OP(C)(=O)Nc2ccccc2Br)cc1` (stereo not drawn), the growth rescue is reported as inactive: -0.844%. With `COc1ccccc1OP(C)(=O)Nc1ccc(C)c(C)c1` (stereo not drawn) the growth rescue was inactive: -0.0595%. In the case of `O=C1C(O)=C([N+](=O)[O-])C(=O)C(O)=C1[N+](=O)[O-]`, the growth rescue is reported as inactive: 0.0395%. With `CC(=O)O[C@H]1C[C@@H]2OC3C=C(C)CCC3(C)[C@@]1(C)[C@@]21CO1` (stereo partly drawn) the growth rescue was inactive: 5.05%. With `Cc1cc(C)cc(OP(C)(=O)Nc2cccc(C(F)(F)F)c2)c1` (stereo not drawn) the growth rescue was inactive: 1.12%.
